From patent US11203613B2, “Peptidomimetic proteasome inhibitors” (CORNELL UNIVERSITY, priority 2017, dated 2021)

Protein sequences, listed by entry. Tags and fused reporters are not part of them. Residues count along the entry.
UniProt P9WHT9, 58-291 limits assumed: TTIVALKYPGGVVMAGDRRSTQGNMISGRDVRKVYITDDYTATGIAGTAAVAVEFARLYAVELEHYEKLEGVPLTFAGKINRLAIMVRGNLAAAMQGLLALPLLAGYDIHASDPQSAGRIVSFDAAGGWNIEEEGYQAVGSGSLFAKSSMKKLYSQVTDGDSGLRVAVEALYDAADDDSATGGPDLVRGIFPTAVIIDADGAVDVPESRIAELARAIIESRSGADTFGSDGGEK

Target: Mtb20SOG (Mycobacterium tuberculosis, UniProt P9WHT9)
Conditions: read-out: Mtb20SOG IC50

Structure (SMILES) | IC50
CC[C@H]1CCCCN1C(=O)C[C@H](NC(=O)C1CC1C(C)C)C(=O)N[C@@H](C)c1nc2c(F)cccc2[nH]1 (stereo partly drawn) [CEN-10, N—((S)-4-((S)-2-Ethylpiperidin-1-yl)-1-(((S)-1-(4-fluoro-1H-benzo[d]imidazol-2-yl)ethyl)amino)-1,4-dioxobutan-2-yl)-2-isopropylcyclopropane-1-carboxamide] | 11 nM, 23 nM, 21 nM
CC[C@H]1CCCCN1C(=O)C[C@H](NC(=O)CCC(C)(C)C)C(=O)N[C@@H](C)c1nc2ccccc2[nH]1 | 127 nM and 835 nM

The source holds more than one record for some entries. This list holds those alone. The source may hold further records. The records of an entry differ, and nothing given here explains why; dose, time, organism, isomer or construct need not be as stated for each record.
